Measured values from several laboratories, pooled; numbers as filed in NIAID ChemDB.

Common to all: growth or infection tests; agent: Candida kefyr

a–b is a range or a potency band. Blank or dashed fields: not listed here. MIC50, MIC90 and the like: level of inhibition, or share of isolates inhibited. Lines come from different laboratories, so protocols vary.

{"structure": "O=C(CCn1ccnc1)c1cccc2ccccc12", "read by": "broth dilution", "strain or isolate": "RTCC 1019", "endpoint": "MIC", "result": ">64 µg/mL"}
{"structure": "Cn1cccc1CC(=O)NNC(=O)NCCCCCCNC(=O)NNC(=O)Cc1cccn1C", "endpoint": "MIC", "result": "7.5 µg/mL"}
{"structure": "O=C(CCn1ccnc1)c1cccc(C(O)c2ccc(Cl)cc2)c1", "read by": "broth dilution", "strain or isolate": "RTCC 1019", "endpoint": "MIC", "result": "0.5 µg/mL"}
{"structure": "CCCCN(Cc1cn(Cc2ccccc2Br)nn1)CC(O)(Cn1cncn1)c1ccc(F)cc1F", "endpoint": "MIC80", "result": "0.0156 µg/mL"}
{"structure": "CC(=O)NNC(=O)NCCCCCCNC(=O)NNC(C)=O", "endpoint": "MIC", "result": "7.5 µg/mL"}
{"structure": "C[C@H]1[C@H](O)[C@@H](C)/C=C/C=C/C=C/C=C/C=C/C=C/C=C/[C@H](O[C@@H]2O[C@H](C)[C@@H](O)[C@H](N)[C@@H]2O)C[C@@H]2O[C@](O)(C[C@@H](O)C[C@@H](O)CC[C@H](O)[C@@H](O)C[C@@H](O)CC(=O)O[C@H]1C)C[C@H](O)[C@H]2C(=O)O", "read by": "broth dilution / absorbance", "strain or isolate": "ATCC 2512", "endpoint": "MIC99", "result": "12.5 µM"}
{"structure": "OC(CCn1ccnc1)c1ccc(Br)cc1", "read by": "broth dilution", "strain or isolate": "RTCC 1019", "endpoint": "MIC", "result": ">64 µg/mL"}
{"structure": "CCOc1ccc2nc3cc(N=C4NC(=O)/C(=C\\c5ccc([N+](=O)[O-])o5)S4)ccc3c(N)c2c1", "read by": "broth dilution", "strain or isolate": "ATCC 8614", "endpoint": "MFC", "result": "125 µg/mL"}
{"structure": "CCCCN(Cc1cn(Cc2ccc(C)cc2)nn1)CC(O)(Cn1cncn1)c1ccc(F)cc1F", "endpoint": "MIC80", "result": "0.25 µg/mL"}
{"structure": "O=C(CCn1ccnc1)c1ccc(-c2ccccc2)cc1", "read by": "broth dilution", "strain or isolate": "RTCC 1019", "endpoint": "MIC", "result": "2 µg/mL"}
{"structure": "CCCCN(Cc1cn(Cc2ccccc2C#N)nn1)CC(O)(Cn1cncn1)c1ccc(F)cc1F", "endpoint": "MIC80", "result": "0.0625 µg/mL"}
{"structure": "O=C1c2ccccc2CC1Cn1ccnc1", "read by": "broth dilution", "strain or isolate": "RTCC 1019", "endpoint": "MIC", "result": "64 µg/mL"}
{"structure": "CCCCN(Cc1cn(Cc2ccc([N+](=O)[O-])cc2)nn1)CC(O)(Cn1cncn1)c1ccc(F)cc1F", "endpoint": "MIC80", "result": "0.0625 µg/mL"}
{"structure": "CC[C@@H]([C@H](C)O)n1ncn(-c2ccc(N3CCN(c4ccc(OC[C@@H]5CO[C@@](Cn6cncn6)(c6ccc(F)cc6F)C5)cc4)CC3)cc2)c1=O", "endpoint": "MIC50", "result": "0.008–2 µg/mL"}
{"structure": "CCCCN(Cc1cn(Cc2cccc(Br)c2)nn1)CC(O)(Cn1cncn1)c1ccc(F)cc1F", "endpoint": "MIC80", "result": ">64 µg/mL"}
{"structure": "O=C(NCCCCCCNC(=O)NNC(=O)c1ccccc1)NNC(=O)c1ccccc1", "endpoint": "MIC", "result": "7.5 µg/mL"}
{"structure": "CCCCN(Cc1cn(Cc2c(Cl)cccc2Cl)nn1)CC(O)(Cn1cncn1)c1ccc(F)cc1F", "endpoint": "MIC80", "result": "16 µg/mL"}
{"structure": "O=C(CCn1ccnc1)c1ccc(Cl)cc1", "read by": "broth dilution", "strain or isolate": "RTCC 1074", "endpoint": "MIC", "result": "8 µg/mL"}

For reference, 2 entries again:

| structure | read by | strain or isolate | endpoint | result |
|---|---|---|---|---|
| CCCCN(Cc1cn(Cc2c(Cl)cccc2Cl)nn1)CC(O)(Cn1cncn1)c1ccc(F)cc1F | - | - | MIC80 | 16 µg/mL |
| CC(=O)NNC(=O)NCCCCCCNC(=O)NNC(C)=O | - | - | MIC | 7.5 µg/mL |